From patent publication US20240109955A1 come the findings set out here.

Assay [1] deals with SARS-CoV-2 Omicron variant BA.4.6 spike protein (SARS-CoV-2), P0DTC2. Kind of assay: cell-based or functional assay.
The target of assay [2] is SARS-CoV-2 Omicron variant BF.7 spike protein (SARS-CoV-2), P0DTC2. The assay is described as follows: cell-based or functional assay.

B1: MX1047 (bispecific antibody)
chain 1: DTVMTQSPLSLPVTPGEPASISCRSSQSLLNSNGYNYLDWYVQKPGQSPQLLIYLGSNRASGVPDRFSGSGSGTDFTLKISRVEAEDVGVYYCMQPLQTPLFTFGPGTKVEIKGGSSGEIVLTQSPGTLSLSPGERATLSCRASQSVSSSYLAWYQQKPGQAPRLLIYSASSRATGIPDRFSGSGSGTDFTLTISRLEPEDFAVYFCQQYVGLTGWTFGQGTKVEIKGGGGSGGSGSGGGGSASGSGQMQLVQSGPEVKKPGTSVKVSCKASGFTFTSSAVQWVRQRQRLEWIGWIVVGSGNTNYAQKFQERVTITRDMSTSTAYMELSSLRSEDTAVYYCAAPNCSNVVCYDGFDIWGQGTMVTVSSGGSSGQVTLRESGPALVKPTQTLTLTCTFSGFSLSTRGVCVSWIRQPPGKALEWLAFIDWDDDKYYNTSLKTRLTISKDTSKNQVVLTMTNVHPVDTATYYCARISSHHGSSWCTTFDYWGQGALVTVSAASGGSGDKTHTCPPCPAPELLGGPSVFLFPPKPKDTLMISRTPEVTCVVVDVSHEDPEVKFNWYVDGVEVHNAKTKPREEQYNSYVVSVLTVLHQDWLNGKEYKCKVSNKALPAPIEKTISKAKGQPREPQVYTLPPSRDELTKNQVSLTCLVKGFYPSDIAVEWESNGQPENNYKTTPPVLDSDGSFFKKLTVDKSRWQQGNVFSCSVLHEALHSHYTQKSLSLSPG
chain 2: EIVLTQSPGTLSLSPGERATLSCRASQSVSSSYLAWYQQKPGQAPRLLIYSASSRATGIPDRFSGSGSGTDFTLTISRLEPEDFAVYFCQQYVGLTGWTFGQGTKVEIKGGSSGQTVVTQEPSFSVSPGGTVTLTCGLSSGSVSTAYFPSWYQQTPGQAPRTLIYGTNTRSSGVPDRFSGSILGNKAALTITGAQADDESDYYCVLYMGRGIVVFGGGTKLTVLGGGGSGGSGSGGGGSASGSGQVQLVESGGGVVQPGRSLRLSCAASGFTLSSYGMHWVRQAPGKGLEWVAVISYDGSNKYYVDSVKGRFTISRDNSKNTLYLQMNSLRAEDTAVYYCRWAYWELLPDYYYGMDVWGQGTTVTVSSGGSSGQMQLVQSGPEVKKPGTSVKVSCKASGFTFTSSAVQWVRQRQRLEWIGWIVVGSGNTNYAQKFQERVTITRDMSTSTAYMELSSLRSEDTAVYYCAAPNCSNVVCYDGFDIWGQGTMVTVSSASGGSGDKTHTCPPCPAPELLGGPSVFLFPPKPKDTLMISRTPEVTCVVVDVSHEDPEVKFNWYVDGVEVHNAKTKPREEQYNSYVVSVLTVLHQDWLNGKEYKCKVSNKALPAPIEKTISKAKGQPREPQVYTLPPSRDELTKNQVSLTCLVKGFYPSDIAVEWESNGQPENNYKTTPPVLDSDGSFFKKLTVDKSRWQQGNVFSCSVLHEALHSHYTQKSLSLSPG
In assay [1], B1 had an IC50 (pseudovirus neutralization) of 0.00711 µg/mL and an IC80 (pseudovirus neutralization) of 0.0172 µg/mL. Also, in assay [2], the IC50 (pseudovirus neutralization) turned out to be 0.00437 µg/mL and the IC80 (pseudovirus neutralization) stood at 0.0193 µg/mL.

B2: MX1049 (bispecific antibody)
chain: EIVLTQSPGTLSLSPGERATLSCRASQSVSSSYLAWYQQKPGQAPRLLIYSASSRATGIPDRFSGSGSGTDFTLTISRLEPEDFAVYFCQQYVGLTGWTFGQGTKVEIKGGSSGDTVMTQSPLSLPVTPGEPASISCRSSQSLLNSNGYNYLDWYVQKPGQSPQLLIYLGSNRASGVPDRFSGSGSGTDFTLKISRVEAEDVGVYYCMQPLQTPLFTFGPGTKVEIKGGGGSGGSGSGGGGSASGSGQVTLRESGPALVKPTQTLTLTCTFSGFSLSTRGVCVSWIRQPPGKALEWLAFIDWDDDKYYNTSLKTRLTISKDTSKNQVVLTMTNVHPVDTATYYCARISSHHGSSWCTTFDYWGQGALVTVSAGGSSGQMQLVQSGPEVKKPGTSVKVSCKASGFTFTSSAVQWVRQRQRLEWIGWIVVGSGNTNYAQKFQERVTITRDMSTSTAYMELSSLRSEDTAVYYCAAPNCSNVVCYDGFDIWGQGTMVTVSSASGGSGDKTHTCPPCPAPELLGGPSVFLFPPKPKDTLMISRTPEVTCVVVDVSHEDPEVKFNWYVDGVEVHNAKTKPREEQYNSYVVSVLTVLHQDWLNGKEYKCKVSNKALPAPIEKTISKAKGQPREPQVYTLPPSRDELTKNQVSLTCLVKGFYPSDIAVEWESNGQPENNYKTTPPVLDSDGSFFKKLTVDKSRWQQGNVFSCSVLHEALHSHYTQKSLSLSPG
As to B2, the results for the IC50 (pseudovirus neutralization) in assay [1] and in assay [2] were 0.00519 µg/mL and 0.00468 µg/mL, respectively. Besides, the IC80 (pseudovirus neutralization) in assay [1] worked out at 0.0204 µg/mL; in assay [2], 0.0199 µg/mL.
